Compound potency records, mixed from different reports. Data source: NIAID ChemDB in PubChem.

Shared fields: growth or infection tests; species: HIV-1

a–b is a range or a potency band.

SMILES	strain	cells	mutations	method	endpoint	result
COc1ccc(S(=O)(=O)N(CC(O)CN2C(=O)OC[C@@H]2Cc2ccccc2)CC2CCCC2)cc1	IIIB	CEM		p24	EC50	<1 µM
Cc1cc2[nH]cnc2cc1NC(=O)COc1ccc(Cl)cc1C(=O)c1cc(F)cc(C(F)(F)F)c1	HXB2	HeLa + HELA CD4+	RT-L100I	β-galactosidase	EC50	<0.01 µM
CCCc1cc(=O)oc2c3c(c4c(c12)OC(C)(C)CC4)O[C@@H](C)[C@H](C)[C@@H]3O	Costatolide-resistant (RT Y188H)	CEM + CEM-SS	RT-Y188H	XTT	EC50	>27 µM
Cc1cc(S(N)(=O)=O)ccc1NC(=O)COc1ccc(Cl)cc1C(=O)c1cccc(C#N)c1	IIIB	MT-4		cytopathic effect / propidium iodide	EC50	<0.01 µM
Cc1cc(C#N)cc(C)c1Oc1nc(NC2CCC(NCc3ccc(F)cc3)CC2)nc2ccsc12	IIIB	MT-4	NNRTI-resistant (RT Y188L)	MTT	EC50	>2.77 µM
Cc1cc(C#N)cc(C(=O)c2cc(Cl)ccc2OCC(=O)Nc2cnc(S(N)(=O)=O)cc2C)c1	WTRVA	HeLa + HELA CD4+		β-galactosidase	EC50	<0.01 µM
O=C1c2c(O)c(=O)n(CC3COCCN3Cc3ccccc3)c(=O)n2CCN1Cc1ccc(F)cc1		MT-4		p24	EC95	<10 µM
Cc1cc(S(N)(=O)=O)ccc1NC(=O)COc1ccc(Cl)cc1C(=O)c1cc(Cl)cc(C#N)c1	HXB2	HeLa + HELA CD4+	RT-P236L	β-galactosidase	EC50	<0.01 µM
O=S(=O)(c1ccccc1)N(CC(O)CN(CC1CCCC1)S(=O)(=O)c1ccc(O)cc1)CC1CCCC1	IIIB	CEM		p24	EC90	1 µM
Cc1ncc(-c2cnc(OCCOc3ccc(F)cc3)c(F)c2)c(N2CCC(C)(C)CC2)c1[C@H](OC(C)(C)C)C(=O)O	NL4-3	MT-2		luminescence	EC50	0.0009 µM
Cc1cc(/C=C/C#N)cc(C)c1Oc1nc(NC2CCN(Cc3cccc(Cl)c3)CC2)nc2ccsc12	IIIB	MT-4	NNRTI-resistant (RT K103N)	MTT	EC50	0.0298 µM
COc1ccc(S(=O)(=O)N(CC(C)C)C[C@@H](O)CCN(CC2CCCC2)S(=O)(=O)C2CS(=O)(=O)CC2O)cc1	IIIB	CEM		p24	EC50	<1 µM
Cc1cc(S(N)(=O)=O)ccc1NC(=O)COc1ccc(Cl)cc1C(=O)c1cc(F)cc(C#N)c1	HXB2	HeLa + HELA CD4+	RT-Y181C	β-galactosidase	EC50	<0.01 µM
CC1(C)c2nc(C(=O)NCc3ccc(F)cc3)c(O)c(=O)n2CCN1CC(=O)NCc1ccncc1		MT-4		p24	EC95	<1 µM
O=C(COc1ccc(Cl)cc1C(=O)c1nccs1)Nc1ccccc1	Nevirapine-resistant (RT Y181C)	MT-4	RT-Y181C	cytopathic effect / propidium iodide	EC50	1–3 µM
CC(=O)N1CCn2c(nc(C(=O)NCc3ccc(F)cc3)c(O)c2=O)C(N(C)Cc2ccccc2)C1		MT-4		p24	EC95	<1 µM
CC(C)n1c(=O)c(O)c2n(c1=O)CCN(Cc1ccc(F)cc1Cl)C2=O		MT-4		p24	EC50	<10 µM
Cc1cc(C)cc(C(=O)c2cc(Cl)ccc2OCC(=O)Nc2ccc(S(N)(=O)=O)cc2C)c1	WTRVA	HeLa + HELA CD4+		β-galactosidase	EC50	<0.01 µM
O=C(c1ccccc1)N(CCc1ccccc1)C[C@H](O)CN(CC1CCCC1)S(=O)(=O)c1nc2ccccc2o1	IIIB	CEM		p24	EC50	<1 µM
CC(C)NC(=S)N(C)CCC1CN(Cc2ccc(F)cc2)C(=O)c2c(O)c(=O)n(C(C)C)c(=O)n21		MT-4		p24	EC95	<10 µM
Cc1cc(Cl)cc(C(=O)c2cc(Cl)ccc2OCC(=O)Nc2ccc(S(N)(=O)=O)cc2C)c1	HXB2	HeLa + HELA CD4+	RT-V106A Y181C	β-galactosidase	EC50	0.101–1 µM
Cc1cc(C#N)cc(C)c1Oc1nc(NC2CCN(Cc3ccc(S(N)(=O)=O)cc3)CC2F)nc2ccsc12	IIIB	MT-4	NNRTI-resistant (RT E138K)	MTT	EC50	0.0174 µM
CC(C)=CCOc1cc(NC(=S)c2ccsc2C)ccc1Cl	Oxathiin carboxanilide-resistant RT L100I	CEM + CEM-SS	RT-L100I	cytopathic effect / XTT	EC50	0.3 µM
Cc1cc(/C=C/C#N)cc(C)c1Oc1nc(NC2CCN(Cc3ccccc3C#N)CC2)nc2ccsc12	IIIB	MT-4	NNRTI-resistant (RT Y181C)	MTT	EC50	0.0346 µM
CN1CCn2c(nc(C(=O)NCc3ccc(F)cc3)c(O)c2=O)C(N(C)S(=O)(=O)N(C)C)C1		MT-4		p24	EC50	<1 µM
Cc1ncc(-c2ccc(SCC(C)C)nc2)c(N2CCC(C)(C)CC2)c1[C@H](OC(C)(C)C)C(=O)O	NL4-3	MT-2		luminescence	EC50	0.0044 µM
CN(C)C(=O)C(=O)N1CCn2c(nc(C(=O)NCc3ccc(F)cc3)c(O)c2=O)C(N(C)C(=O)C(=O)N(C)C)C1		MT-4		p24	EC50	<1 µM
CC(C)=CCOc1cc(NC(=S)c2ccoc2C)ccc1Cl	NL4-3	CEM + CEM-SS	RT-L100I	p24	EC50	0.4 µM
COC(=O)N(C)C1CN(C)CCn2c1nc(C(=O)NCc1ccc(F)cc1)c(O)c2=O		MT-4		p24	EC95	<1 µM
COc1ccc(S(=O)(=O)N(CC(C)C)C[C@@H](O)CCN(CC2CCCC2)S(=O)(=O)Cc2ncc[nH]2)cc1	IIIB	CEM		p24	EC90	1 µM
COP(=O)(c1cc(C)cc(CCC#N)c1)c1c(C(N)=O)[nH]c2ccc(Cl)c(F)c12	Clinical isolate	MT-2	Y181C M184V		EC50	0.0014 µM
O=C1c2c(O)c(=O)n(C3CCOC3)c(=O)n2CCN1Cc1ccc(F)cc1		MT-4		p24	EC50	<10 µM
COc1ccc(S(=O)(=O)N(CC(O)CN(CC2CCCC2)S(=O)(=O)c2ccccc2)CC2CCCC2)cc1	IIIB	CEM		p24	EC50	<1 µM
CC(C)[C@H](NC(=O)OCc1ccccn1)C(=O)N[C@@H](Cc1ccccc1)[C@@H](O)C[C@H](Cc1ccccc1)NC(=O)OCc1cccnc1	NL4-3	MT-4	PR-L63P	p24	EC95	1.5 µM
CC(C)=CCOc1cc(NC(=S)c2ccoc2C)ccc1Cl	TIBO R82150-resistant (RT A98G V108I)	CEM + CEM-SS	RT-A98G V108I	cytopathic effect / XTT	EC50	0.3 µM
Cc1ccc(OCCN(C)c2ccc(-c3cnc(C)c([C@H](OC(C)(C)C)C(=O)O)c3N3CCC(C)(C)CC3)nc2)c(C)c1	NL4-3	MT-2		luminescence	EC50	0.0025 µM
N#CC1=CC2Nc3ccccc3C2N(c2ccc([N+](=O)[O-])cc2)C1=O	G-3	HeLa		GFP / fluorescence	EC50	0.32 µM
CC(=O)N(C)C1COCCn2c1nc(C(=O)NCc1ccc(F)cc1)c(O)c2=O		MT-4		p24	EC50	<1 µM
Cc1cc(Cl)ccc1OCCNc1ccc(-c2cnc(C)c([C@H](OC(C)(C)C)C(=O)O)c2N2CCC(C)(C)CC2)cn1	NL4-3	MT-2		luminescence	EC50	0.002 µM
CC(C)=CCN1Cc2cccc3[nH]c(=O)n(c23)CC1C	IIIB	CEM + CEM-SS		cytopathic effect / XTT	EC50	0.1 µM
Cc1ncc(-c2ccc(OCC(C)CF)cn2)c(N2CCC(C)(C)CC2)c1[C@H](OC(C)(C)C)C(=O)O	NL4-3	MT-2		luminescence	EC50	0.0022 µM
Cc1cc(C#N)cc(C)c1Oc1nc(NC2CCN(Cc3ccc(S(N)(=O)=O)cc3)CC2C(=O)O)nc2ccsc12	IIIB	MT-4	NNRTI-resistant (RT L100I)	MTT	EC50	1.64 µM
COCCOCCOCCOc1ccc(-c2cnc(C)c([C@H](OC(C)(C)C)C(=O)O)c2N2CCC(C)(C)CC2)nc1	NL4-3	MT-2		luminescence	EC50	0.0566 µM
Cc1cc(S(N)(=O)=O)ccc1NC(=O)COc1ccc(Cl)cc1C(=O)c1cccc(C#N)n1	HXB2	HeLa + HELA CD4+	RT-V108I Y181C	β-galactosidase	EC50	<0.01 µM
Cc1cc(/C=C/C#N)cc(C)c1Oc1nc(NC2CCN(Cc3cccc(C#N)c3)CC2)nc2ccsc12	IIIB	MT-4	NNRTI-resistant (RT L100I)	MTT	EC50	0.00804 µM

A second listing of 3 rows from above:

SMILES | strain | cells | mutations | method | endpoint | result
Cc1ncc(-c2cnc(OCCOc3ccc(F)cc3)c(F)c2)c(N2CCC(C)(C)CC2)c1[C@H](OC(C)(C)C)C(=O)O | NL4-3 | MT-2 |  | luminescence | EC50 | 0.0009 µM
O=C1c2c(O)c(=O)n(C3CCOC3)c(=O)n2CCN1Cc1ccc(F)cc1 |  | MT-4 |  | p24 | EC50 | <10 µM
CC(C)NC(=S)N(C)CCC1CN(Cc2ccc(F)cc2)C(=O)c2c(O)c(=O)n(C(C)C)c(=O)n21 |  | MT-4 |  | p24 | EC95 | <10 µM

Blank or dashed fields: not listed here. Neighbouring rows are from separate reports. ECn is the concentration giving n% inhibition of infection, replication or growth.